The source's definition of the ratio is not given here.
tested on: HIV-1 strain HTLVIIIB; assay: anti-HIV activity: inhibition of replication of HIV-1 strain HTLVIIIB in PBMC; assay type: cell-based; conditions: selectivity index

Q: `S=C(NCCOc1ccccc1)Nc1ccccn1` [II, N-[2-(Phenoxy)ethyl]-N′-[2-(pyridyl)]thiourea] was tested. Which SI did it give?
A: 1,100

Q: With `S=C(NCCOc1ccccc1)Nc1ccc(Cl)cn1` [III, N -[2-(Phenoxy)ethyl]-N′-[2-(5-chloropyridyl)]thiourea] as the compound, how does the SI read?
A: >25,000

Q: How did the SI turn out when `S=C(NCCOc1ccccc1)Nc1ccc(Br)cn1` [IV, N-[2-(Phenoxy)ethyl]-N′-[2-(5-bromopyridyl)]thiourea] was run?
A: 18,400
